A mixed list of measured activities; the numbers were collected in NIAID ChemDB.

Common to all: target-level tests; agent: Human cytomegalovirus; endpoint: IC50

An empty or dashed field is not shown. ICn is the concentration giving n% inhibition. Neighbouring rows are from separate reports.

compound | method | target | value
COc1ccc2c(c1)c1c3c(c4c5ccccc5n(C)c4c1n2CC(O)CN(C)C)C(=O)NC3=O | - | HCMV protein kinase pUL97 | >1 µM
NS(=O)(=O)c1ccc(CCNc2nnc(NC(=O)c3ccc(Cl)c(Cl)c3)s2)cc1 | - | Polymerase | <25 µM
Cc1cc2nc3c(=O)[nH]c(=O)nc-3n(C[C@H](O)[C@H](O)[C@H](O)CO)c2cc1C | - | Protease | 0.3 µM
CC(O)(P(=O)(O)O)P(=O)(O)O | - | DNA polymerase | >500 µM
Cc1cc2nc3c(=O)[nH]c(=O)nc-3n(CC(O)C(O)C(O)COP(=O)(O)OP(=O)(O)OCC3OC(n4cnc5c(N)ncnc54)C(O)C3O)c2cc1C | - | Protease | >>40 µM
Cc1ccc(C(=O)Nc2nnc(NCc3cccc4ccccc34)s2)cc1 | - | Polymerase | >25 µM
CC(O)(C(=O)O)P(=O)(O)O | - | DNA polymerase | 500 µM
CCCCCCCCCCCNc1nnc(NC(=O)c2ccc(Cl)c(Cl)c2)s1 | - | Polymerase | >25 µM
O=C(O)C(O)P(=O)(O)O | - | DNA polymerase | 3 µM
Cn1c2ccccc2c2c3c(c4c5ccccc5n(CCC#N)c4c21)CNC3=O | - | HCMV protein kinase pUL97 | 0.24 µM
CC(C)c1cc(C(C)C)c(C(=O)Nc2nnc(NCc3ccc(F)cc3)s2)c(C(C)C)c1 | - | Polymerase | >25 µM
O=C(O)C(=O)O | - | DNA polymerase | 130 µM
CCCCCc1cc(OC(=O)c2c(O)cc(OC(=O)c3c(O)cc(O)cc3CCC)cc2CCC)cc(O)c1C(=O)O | scintillation proximity / radiometric | HCMV protease | 11 µM
O=P(O)(O)C(O)P(=O)(O)O | - | DNA polymerase | 105 µM
NS(=O)(=O)c1ccc(CNc2nnc(NC(=O)/C=C/c3ccccc3Cl)s2)cc1 | - | Polymerase | <25 µM
Cc1cc2nc3c(=O)[nH]c(=O)nc-3n(CC(O)C(O)C(O)COP(=O)(O)O)c2cc1C | - | Protease | 0.3 µM

The last 2 rows once more:

NS(=O)(=O)c1ccc(CNc2nnc(NC(=O)/C=C/c3ccccc3Cl)s2)cc1 ; target: Polymerase ; value: <25 µM
Cc1cc2nc3c(=O)[nH]c(=O)nc-3n(CC(O)C(O)C(O)COP(=O)(O)O)c2cc1C ; target: Protease ; value: 0.3 µM